According to the supplement of paper PMC12637763:
Substitutions are numbered along the chain they refer to. The list shows a part of the results. Env chains of viruses from a treatment-interruption trial, translated from the printed DNA. IC50 / IC80 of two broadly neutralizing antibodies; lower = more sensitive virus; >50 µg/ml means not reached and <0.001 µg/ml is below the lowest dose. No active / inactive call.

B1: HIV-1 Env, rebound clone, antibody arm (protein)
chain: MKVKGTKRNYQHLWRWGIMLLGILMICSAADKFWVTVYYGVPVWKEASTTLFCASDAKAYDTEVHNVWATHACVPTDPNPQEIFLENVTEDFNMWENNMVEQMHEDVISLWDQSLKPCVKLTPLCVTLNCTDLKNVTESGNATATGGNNNRTVENEGEIKNCSFNITTSIRDKVTKEYALFNALDVVPIEDSNDNSSNGGNYSSYRMIHCNTSTITQACPKVSFEPIPIHYCTPAGFAILKCNNNTFSGKGPCNNVSTVQCTHGIRPVVSTQLLLNGSLAEEEIVIRSKNFSQNTDIIIVQLNESVIINCTRPNNNTRRGVHIGPGRAFYATGDIIGDIRRAYCNISRAEWNKTLGRVAEKLREQFPNKTIVFNQSSGGDPEIATHSFNCGGEFFYCYTSKLFNSTWNDTEGKVEEGDGNITFPCRIKQIINLWQEVGKAMYAPPISGIIKCESNITGLLLTRDGGNDNNTNEIFRPWGGNMKDNWRSELYKYKVVKIEPIGVAPTKAKRRVVQREKRAVGALGAMFLGFLGAAGSTMGAASLTLTVQARLLLSGIVQQQNNLLRAIEAQQHMLQLTVWGIKQLQARVLAVERYLRDQQLLGIWGCSGKLICTTAVPWNDSWSNNKTYDDIWENMTWMAWEKEIDNYTGIIYNLLEISQNQQEKNEQELLELDKWASLWNWFDITHWLWYIKIFIMIVGGLIGLRIVFTVLSIINRVRQGYSPLSFQTHLLTSRGPDRPEGIEEEGGEQDRGRSIRLVDGFLALFWDDLRSLCLFSYHRLRDLLLIAARIVELLGRRGWGILKYWWSLLQYWSQELNKSAISLLNATAIAVAEGTDRIIEVVQRAGRAILHIPVRIRQGLERALQ
B2: HIV-1 Env, rebound clone, antibody arm (protein)
chain: B1 chain with F694C, A845T
B3: HIV-1 Env, rebound clone, antibody arm (protein)
chain: MRVRGIPRNWQHLWTWWTLTLGLVIICSTSDNLWVTVYYGVPVWEDADTPLFCASDAKAYSTEKHNVWATHACVPTDPNPQELHLENVTEEFNMWKNNMVEQMHEDIISLWDEALKPCVKLTPLCVTLNCVSLNCSSVNKNVTNGNNSTECAEERENLRNCSFNVTTELKDKKEQTYALFYKLDVVQLNSGNNNNNTYRLINCNVSAIKQACPKVTFDPIPIHYCAPAGFAILKCNDKNFNGTGQCHNVSTVLCTHGIKPVVSTQLLLNGSLSEDEIVIKSENITDNAKSIIVQLNSTVSITCSRPNNNTRKSIRIGPGQVFYAQGDIIGDIRQAHCKVSRGNWTKVMQEVKGQLQKIFNKNITFNSSTGGDLEITTHSFNCRGEFFYCNTTGLFDDTLFNNNNTNDTSPITLPCKIKQIVRMWQRVGQAMYAPPIAGEITCISNITGLLLTRDGGNTTNASNETFRPGGGNMRDNWRSELYKYKVVKIKPLGVAPTKARRRVVQREKRAVGLGAVFLGFLGTAGSTMGAASITLTVQVRQLLSGIVQQQSNLLRAIEAQQHLLQLTVWGIKQLQARVLAVERYLKDQQLLGIWGCSGKLICTTNVPWNTSWSNKSYNEIWDNMTWMQWDKEVRNYSQQIYDLIQESQTQQEKNEQELLALDKWTSLWSWFDISSWLWYIKIFIMIVGGLIGLRIVFAVLSIVKRVRQGYSPLSFQTLTHHQREPDRPEGIEEGGGEQDKDRSIRLVSGFLPLAWDDVRSLCLFLYHRLRDFILIAARTLELLGRSCLQGLRLGREGLKYLWNLLVYWGQELKNSAINLFDTAAIVVANWTDRVIEIAQGIGRAILNIPRRIRQGLERALL
B4: HIV-1 Env, rebound clone, antibody arm (protein)
chain: B3 chain with S313G
B5: HIV-1 Env, rebound clone, antibody arm (protein)
chain: B3 chain with K338N, S340N, L804R
B6: HIV-1 Env, rebound clone, antibody arm (protein)
chain: B3 chain with L782F

These binders were tested against antibody 10-1074 (assay: neutralization IC50; higher = virus less sensitive to the antibody).
Method: (§1)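 Pseudovirus bearing the Env chain mixed with antibody, from 50 µg/ml in fivefold dilutions, on TZM-bl reporter cells, in duplicate.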

Point of comparison: B1, “neutralization IC50” value 0.253 µg/mL. Against it:
- B2 — 2.8-fold lower, 0.092 µg/mL
- B3 — higher, > 50 µg/mL
- B4 — higher, > 50 µg/mL
- B5 — higher, > 50 µg/mL
- B6 — higher, > 50 µg/mL

Each binder was assayed against antibody 3BNC117 in the same assay as above.
Method: as §1

Point of comparison: B6, “neutralization IC50” value 0.112 µg/mL. Against it:
- B1 — higher, > 50 µg/mL
- B2 — higher, > 50 µg/mL
- B3 — within 1.5-fold, 0.103 µg/mL
- B4 — within 1.5-fold, 0.125 µg/mL
- B5 — within 1.5-fold, 0.135 µg/mL

What follows are binders tested against antibody 10-1074 (assay: neutralization IC80; higher = virus less sensitive to the antibody).
Method: as §1

Point of comparison: B2, “neutralization IC80” value 0.488 µg/mL. Against it:
- B1 — within 1.5-fold, 0.706 µg/mL
- B3 — higher, > 50 µg/mL
- B4 — higher, > 50 µg/mL
- B5 — higher, > 50 µg/mL
- B6 — higher, > 50 µg/mL

These binders were tested against antibody 3BNC117 in the same assay as above.
Method: as §1

Point of comparison: B3, “neutralization IC80” value 0.653 µg/mL. Against it:
- B1 — higher, > 50 µg/mL
- B2 — higher, > 50 µg/mL
- B4 — within 1.5-fold, 0.886 µg/mL
- B5 — within 1.5-fold, 0.543 µg/mL
- B6 — within 1.5-fold, 0.807 µg/mL
